Measurements: PMC4118376 (Sensors (Basel, Switzerland), 2014)
Numbering of substitutions follows the chain as printed.

B1: sdAb F1 (VHH)
VHH: DVQLQASGGGLVQAGGSLRLTCAASLHTFGSYAMGWFRQAPGKEREFVAAISWSGGDTYSDSVKGRFTISRDNAKNTVYLQMNSLEPEDTAVYSCAAVEARYYISTDAKDYGYWGQGTQVTVSS
notes: source: E. coli Rosetta (DE3), periplasm, purified (IMAC, size exclusion chromatography)
B2: sdAb A10 (VHH)
VHH: EVQLQASGGGLVRAGGTLRLTCDATTPTFGSYAMGWFRQAPGKEREFVSAISWSGGDTYADSVKGRFTISRDNTRNRVYLQMNDLEPDDTAIYTCARTTARYYISKDAKDYDYWGQGTQVTVSS
notes: as for B1
B3: sdAb D9 (VHH)
VHH: EVQLQASGGGLAQAGDSLRLSCAASIRTFGSYAMGWFRQAPGKEREFVAAISWSGGDTYADSAKGRFTISRDNAKNMMYLQMNSLAPEDTAVYFCAIVEAKYYISKDARDYGYWGQGTQVFVSS
notes: as for B1
B4: sdAb B1 (VHH)
VHH: EVQLQASGGGLVQAGGSLRLTCAVSGPTFGSYALGWFRQAPGKEREFVAAVSWSGGDTYADTAKGRFIISRDNAKNTVYLQMNNLEPEDTAVYSCARMQDRYYISKDAKDYGYWGQGTQVIVSS
notes: as for B1
B5: sdAb H9 (VHH)
VHH: B4 VHH with T62S, A63V, G117E, I121T
notes: as for B1
B6: sdAb H12 (VHH)
VHH: EVQLQASGGGLVLTGGSLRLSCAASGRNFSNYAMAWFRQAPGKEREFVGTISWYTNTNYANSVKGRFSISRDNAKNTVYLQMSSLKPEDTAVYYCAAAPAMYYNPYTRESEYGYWGQGTQVTVSS
notes: as for B1
B7: sdAb E9 (VHH)
VHH: B6 VHH with L13Q, T14A, N28D, N31D, N61D, M101R, T107K
notes: as for B1
B8: sdAb E2 (VHH)
VHH: B1 VHH with D1E, L26G, H27R, S60A, E86A, E99G, T106K
notes: as for B1
B9: sdAb H9-A1 (VHH)
VHH: EVQLQASGGGLVQPGGSLRLSCAASGSAVSIGFMAWYRQAPGKQRELVARISSSGLPDYADTVKGRFTISRDNTRKTVSLQMNSLNPDDTAVYYCNARLYDGSSAWGQGTQVTVSS
notes: as for B1
B10: sdAb H9-H11 (VHH)
VHH: DVQLQASGGGLVQPGGSLRLSCAASESAVRIGFMGWHRQAPGNQRERVAQISSTGLPTYADAVKGRFTISRDNTKNTVYLQMNSLNADDTAVYFCNARLYDGTSVWGQGTQVTVSS
notes: source: E. coli, periplasm, purified (IMAC, size exclusion chromatography)
B11: sdAb S222-A2 (VHH)
VHH: B10 VHH with Q13E, E26G, R30S, N43K, L56I, T58N, A62T, V78M, V105A
notes: as for B10
B12: sdAb H9-B11 (VHH)
VHH: DVQLQASGGGLVQVGGSLRLSCAASGSTFRIGYMGWYRQAPGKPRELVARISSGGTTDYLDFVKDRFTISRDNAKNTVYLQMSSLKPEDTAVYYCNVVNYRANEYWGQGTQVTVSS
notes: as for B10
B13: sdAb H9-D7 (VHH)
VHH: B12 VHH with G35S, Y37H, P44S, F62S, A74T, S83N, K86E, N99D, T113A
notes: as for B1

What follows are binders tested against ricin (Ricinus communis (; implied …, UniProt P02879).

Binder	binding result
B1	no binding
B2	no binding
B3	no binding
B4	no binding
B5	no binding
B6	no binding
B7	no binding
B8	no binding
B9	no binding
B10	no binding
B11	no binding
B12	no binding
B13	no binding
